Data as given in PubChem BioAssay AID624099 (ICCB-Longwood, 2012).
Shown is a random part of about 21,000 deposited reagents. Of all reagents, 497 (2.4%) are marked active. 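Higher z means weaker E2 silencing; only reporter increases were scored, and knock-downs that hurt cell survival may mask genuine repressor factors.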 A number with no mark means an inactive call. Reagents against one gene are numbered here.

Aim: 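Knock-downs relieving repression by E2 of an HPV18 LCR luciferase reporter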 (primary screen)
Cell system: human C33A cervical carcinoma cells (HPV-negative) stably expressing BPV1 E2 and an HPV18 LCR luciferase reporter
Reagent: siRNA pool against human genes, 40 nM
Timing: 72 h
Read-out: 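HPV18 LCR reporter light per well, converted to plate-wise z-scores that exclude control wells, and averaged over triplicate plates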
Reading the numbers: mean z-score and z-score: higher = stronger reporter signal, weaker E2 silencing
Rule for the call: 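Hit if mean z-score reaches 2 and two or more of three replicate z-scores also reach 2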

gene | reagent no. | mean z-score | z-score, replicate A | z-score, replicate B | z-score, replicate C
SRPK2 (GeneID 6733) | 1 | 0.12 | 0.53 | -0.13 | -0.06
HERC2P10 (GeneID 390561) | 1 | 0.9 | 0.81 | 1.25 | 0.65
KRTAP4-1 (GeneID 85285) | 1 | -1.03 | -1.45 | -0.83 | -0.81
LOC388709 (retired record) (GeneID 388709) | 1 | -1.18 | -1.34 | -0.98 | -1.21
ASIP (GeneID 434) | 1 | 3.28 (active) | 2.85 | 2.66 | 4.33
AP1S1 (GeneID 1174) | 1 | 0.22 | 0.08 | 0.51 | 0.07
TMC1 (GeneID 117531) | 1 | 1.86 | 1.24 | 2.13 | 2.19
ZNF799 (GeneID 90576) | 1 | 0.19 | 0.06 | 0.23 | 0.27
ZNF799 (GeneID 90576) | 2 | -0.96 | -0.87 | -1.04 | -0.96
IL36RN (GeneID 26525) | 1 | 0.59 | 0.73 | 0.5 | 0.54
PDILT (GeneID 204474) | 1 | -1.61 | -1.78 | -1.71 | -1.36
RMND1 (GeneID 55005) | 1 | 0.15 | 0.35 | 0.19 | -0.1
BPGM (GeneID 669) | 1 | 1.71 | 1.86 | 1.55 | 1.71
MED27 (GeneID 9442) | 1 | -2.29 | -2.08 | -2.4 | -2.4
ABHD15 (GeneID 116236) | 1 | -0.86 | -0.8 | -0.77 | -1
USP43 (GeneID 124739) | 1 | -1.58 | -1.94 | -1.55 | -1.25
TTC21B (GeneID 79809) | 1 | -1.09 | -0.98 | -1.31 | -0.98
VIRMA (GeneID 25962) | 1 | 0.12 | 0.14 | 0.27 | -0.04
EFCAB9 (GeneID 285588) | 1 | -0.14 | -0.32 | -0.01 | -0.09
PIN4 (GeneID 5303) | 1 | 0.6 | 0.63 | 0.59 | 0.59
MPG (GeneID 4350) | 1 | 1.1 | 0.97 | 1.3 | 1.03
TIGD3 (GeneID 220359) | 1 | -2.04 | -2.49 | -2.04 | -1.6
COPG1 (GeneID 22820) | 1 | -1.18 | -1.51 | -1.01 | -1.01
NPIPB3 (GeneID 23117) | 1 | 1.03 | 0.87 | 0.76 | 1.45
FAXDC2 (GeneID 10826) | 1 | -0.6 | -0.44 | -0.49 | -0.86
ZNF333 (GeneID 84449) | 1 | -0.53 | -0.39 | -0.39 | -0.82
LRRN3 (GeneID 54674) | 1 | 0.5 | 0.53 | 0.5 | 0.48
LGI3 (GeneID 203190) | 1 | -0.86 | -1.08 | -0.77 | -0.73
PANX3 (GeneID 116337) | 1 | -0.3 | -0.61 | -0.29 | 0

In a second layout: entries from further up
TTC21B (GeneID 79809) → mean z-score = -1.09; z-score, replicate A = -0.98; z-score, replicate B = -1.31; z-score, replicate C = -0.98
VIRMA (GeneID 25962) → mean z-score = 0.12; z-score, replicate A = 0.14; z-score, replicate B = 0.27; z-score, replicate C = -0.04
EFCAB9 (GeneID 285588) → mean z-score = -0.14; z-score, replicate A = -0.32; z-score, replicate B = -0.01; z-score, replicate C = -0.09
PIN4 (GeneID 5303) → mean z-score = 0.6; z-score, replicate A = 0.63; z-score, replicate B = 0.59; z-score, replicate C = 0.59
MPG (GeneID 4350) → mean z-score = 1.1; z-score, replicate A = 0.97; z-score, replicate B = 1.3; z-score, replicate C = 1.03
TIGD3 (GeneID 220359) → mean z-score = -2.04; z-score, replicate A = -2.49; z-score, replicate B = -2.04; z-score, replicate C = -1.6
COPG1 (GeneID 22820) → mean z-score = -1.18; z-score, replicate A = -1.51; z-score, replicate B = -1.01; z-score, replicate C = -1.01
NPIPB3 (GeneID 23117) → mean z-score = 1.03; z-score, replicate A = 0.87; z-score, replicate B = 0.76; z-score, replicate C = 1.45

More results follow:
gene | reagent no. | mean z-score | z-score, replicate A | z-score, replicate B | z-score, replicate C
OR4K15 (GeneID 81127) | 1 | -1.25 | -1.37 | -1.54 | -0.86
SLC7A1 (GeneID 6541) | 1 | 0.96 | 0.93 | 0.8 | 1.14
LOC387898 (retired record) (GeneID 387898) | 1 | 0.57 | 0.51 | 0.72 | 0.49
APPBP2 (GeneID 10513) | 1 | 0.12 | 0.08 | 0.1 | 0.18
CIROZ (GeneID 148345) | 1 | 0.25 | 0.48 | -0.09 | 0.37
CEP164 (GeneID 22897) | 1 | -1.55 | -1.54 | -1.53 | -1.57
KCNRG (GeneID 283518) | 1 | -0.45 | -0.66 | -0.3 | -0.38
PRSS23 (GeneID 11098) | 1 | 0.31 | 0.31 | -0.14 | 0.77
TES (GeneID 26136) | 1 | -1.07 | -0.97 | -1.31 | -0.92
NPTX1 (GeneID 4884) | 1 | -0.11 | 0.02 | -0.04 | -0.32
CCDC198 (GeneID 55195) | 1 | -0.65 | 0.2 | -0.25 | -1.91
LIME1 (GeneID 54923) | 1 | -0.62 | -0.7 | -0.86 | -0.3
LINC01624 (GeneID 401289) | 1 | -0.33 | -0.3 | -0.71 | 0.04
LOC389392 (retired record) (GeneID 389392) | 1 | 0.5 | 0.27 | 0.78 | 0.45
RBM12B (GeneID 389677) | 1 | 0.45 | 0.26 | 0.4 | 0.68
ROPN1 (GeneID 54763) | 1 | -0.58 | -0.71 | -0.63 | -0.39
MAL (GeneID 4118) | 1 | -0.16 | -0.49 | 0.19 | -0.18
FABP1 (GeneID 2168) | 1 | 1.14 | 1.45 | 1.08 | 0.9
RPLP2 (GeneID 6181) | 1 | -2.54 | -2.55 | -2.59 | -2.5
RUNX1T1 (GeneID 862) | 1 | 0.99 | 1.14 | 0.77 | 1.06
CNOT6L (GeneID 246175) | 1 | 1.13 | 1.05 | 1.04 | 1.3
PCDH17 (GeneID 27253) | 1 | -1.7 | -1.42 | -1.78 | -1.89
GRK3 (GeneID 157) | 1 | -1.4 | -1.38 | -1.79 | -1.04
NOL11 (GeneID 25926) | 1 | -0.09 | -0.02 | -0.01 | -0.24
CCDC78 (GeneID 124093) | 1 | -0.31 | -0.17 | -0.78 | 0.01
RNF39 (GeneID 80352) | 1 | 0.47 | 0.26 | 0.56 | 0.58
EBLN1 (GeneID 340900) | 1 | 0.79 | 1.5 | 0.13 | 0.73
LINC00640 (GeneID 283553) | 1 | 0.29 | 0.7 | -0.35 | 0.51
